Target: T1, Yeast two-hybrid activation domain-Tsg101 construct (full-length Tsg101 in GADpN2) (human, UniProt P04386 768-881; Q99816 1-390)
T1 construct: range 768-881;range 1-390; not shown: SV40 NLS of the parent plasmid GADpN2
T1 sequence: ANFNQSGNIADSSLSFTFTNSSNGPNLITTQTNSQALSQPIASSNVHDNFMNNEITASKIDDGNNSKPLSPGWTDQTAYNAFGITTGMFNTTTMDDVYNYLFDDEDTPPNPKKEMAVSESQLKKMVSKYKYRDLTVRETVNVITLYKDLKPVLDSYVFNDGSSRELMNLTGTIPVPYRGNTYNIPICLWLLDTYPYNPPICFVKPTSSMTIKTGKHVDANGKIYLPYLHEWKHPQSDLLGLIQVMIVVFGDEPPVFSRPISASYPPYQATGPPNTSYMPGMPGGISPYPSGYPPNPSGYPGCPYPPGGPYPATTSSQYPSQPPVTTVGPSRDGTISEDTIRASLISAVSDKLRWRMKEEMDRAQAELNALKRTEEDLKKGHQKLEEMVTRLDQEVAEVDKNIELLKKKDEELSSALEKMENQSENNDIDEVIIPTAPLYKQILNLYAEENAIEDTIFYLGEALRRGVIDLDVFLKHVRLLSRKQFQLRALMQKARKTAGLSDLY
Test: yeast two-hybrid, filter lift β-Gal assay

B1: Yeast two-hybrid DNA binding domain-HIV1 GAGp6 construct, wild type (HIV1.NL43 strain) (other)
chain: MKLLSSIEQACDICRLKKLKCSKEKPKCAKCLKNNWECRYSPKTKRSPLTRAHLTEVESRLERLEQLFLLIFPREDLDMILKMDSLQDIKALLTGLFVQDNVNKDAVTDRLASVETDMPLTLRQHRISATSSSEESSNKGQRQLTVSLQSRPEPTAPPEESFRFGEETTTPSQKQEPIDKELYPLASLRSLFGSDPSSQ
  binding result: binds

From patent EP1377165B1 (MYRIAD GENETICS, INC., dated 2009)
